The values below come from patent US8735414B2 (priority 2009, dated 2014).

A word on the IC50: it is the concentration that gives 50% inhibition. A high value points to a need for much substance.

SMILES strings stand for the structures.

This experiment has as its system HCV-poliovirus (HCV-PV) chimera in HeLa cells. The experiment is described as follows: Compound activity evaluation using an HCV-poliovirus chimera.
Turning to `N#Cc1c(-c2ccc(S(=O)(=O)NC(CF)CF)cn2)n(C2CCCC2)c2cc(OC(F)F)ccc12` [compound 49, 6-[3-cyano-1-cyclopentyl-6-(difluoromethoxy)-1H-indol-2-yl]-N-(1,3-difluoropropan-2-yl)pyridine-3-sulfonamide], the half-maximal inhibitory concentration (IC50) was below 500 nM.
Take `N#Cc1c(-c2ccc(S(=O)(=O)NC(CF)CF)cn2)n(C2CCC2)c2ccc(OC(F)F)cc12` [compound 32, 6-[3-cyano-1-cyclobutyl-5-(difluoromethoxy)-1H-indol-2-yl]-N-(1,3-difluoropropan-2-yl)pyridine-3-sulfonamide]: the IC50 was below 500 nM.
For `CC(C)c1ccc2c(C#N)c(-c3ccc(S(=O)(=O)NC(CF)CF)cn3)n(C3CCC3)c2c1` [compound 43, 6-[3-cyano-1-cyclobutyl-6-(propan-2-yl)-1H-indol-2-yl]-N-(1,3-difluoropropan-2-yl)pyridine-3-sulfonamide], the IC50 was below 500 nM.
Take `CCCn1c(-c2ccc(S(=O)(=O)NC(CF)CF)cn2)c(C#N)c2ccc(OC(F)F)cc21` [compound 45, 6-[3-cyano-6-(difluoromethoxy)-1-propyl-1H-indol-2-yl]-N-(1,3-difluoropropan-2-yl)pyridine-3-sulfonamide]: the IC50 was below 500 nM.
The value for `N#Cc1c(-c2ccc(S(=O)(=O)NC(CF)CF)cn2)n(C2CCCC2)c2ccc(Cl)cc12` [compound 72, 6-(5-chloro-3-cyano-1-cyclopentyl-1H-indol-2-yl)-N-(1,3-difluoropropan-2-yl)pyridine-3-sulfonamide] was below 500 nM; that for `Cc1ccc2c(C#N)c(-c3ncc(S(=O)(=O)NC(C)C)cn3)n(C3CCCC3)c2c1` [compound 74, 2-(3-cyano-1-cyclopentyl-6-methyl-1H-indol-2-yl)-N-(propan-2-yl)pyrimidine-5-sulfonamide] was below 500 nM.
The value for `Cc1ccc2c(C#N)c(-c3ccc(S(=O)(=O)NC(CF)CF)cn3)n(C3CCC3)c2c1` [compound 82, 6-(3-cyano-1-cyclobutyl-6-methyl-1H-indol-2-yl)-N-(1,3-difluoropropan-2-yl)pyridine-3-sulfonamide] was below 500 nM; that for `N#Cc1c(-c2ccc(S(=O)(=O)NC(CF)CF)cn2)n(-c2ccccc2)c2cc(C3CC3)ccc12` [compound 95, 6-(3-cyano-6-cyclopropyl-1-phenyl-1H-indol-2-yl)-N-(1,3-difluoropropan-2-yl)pyridine-3-sulfonamide] was below 500 nM; that for `CC(NS(=O)(=O)c1ccc(-c2c(C#N)c3ccc(OC(F)F)cc3n2C2CCCC2)nc1)C(F)(F)F` (stereo not drawn) [compound 53, 6-[3-cyano-1-cyclopentyl-6-(difluoromethoxy)-1H-indol-2-yl]-N-(1,1,1-trifluoropropan-2-yl)pyridine-3-sulfonamide] was below 500 nM.
`N#Cc1c(-c2ccc(S(=O)(=O)NC(CF)CF)cn2)n(-c2ccccc2)c2ccc(F)cc12` [compound 113, 6-(3-cyano-5-fluoro-1-phenyl-1H-indol-2-yl)-N-(1,3-difluoropropan-2-yl)pyridine-3-sulfonamide] showed a concentration for half-maximal inhibition (IC50) below 500 nM.
In turn, `N#Cc1c(-c2ccc(S(=O)(=O)NC(CF)CF)cn2)n(-c2ccccc2)c2ccc(Cl)cc12` [compound 112, 6-(5-chloro-3-cyano-1-phenyl-1H-indol-2-yl)-N-(1,3-difluoropropan-2-yl)pyridine-3-sulfonamide] had an IC50 below 500 nM.
`N#Cc1c(-c2ccc(S(=O)(=O)NC(CF)CF)cn2)n(CC2CC2)c2cc(OC(F)F)ccc12` [compound 41, 6-[3-cyano-1-(cyclopropylmethyl)-6-(difluoromethoxy)-1H-indol-2-yl]-N-(1,3-difluoropropan-2-yl)pyridine-3-sulfonamide] had an IC50 below 500 nM.
`N#Cc1c(-c2ccc(S(=O)(=O)NC3(C(F)(F)F)CC3)cn2)n(C2CCCC2)c2cc(OC(F)F)ccc12` [compound 94, 6-[3-cyano-1-cyclopentyl-6-(difluoromethoxy)-1H-indol-2-yl]-N-[1-(trifluoromethyl)cyclopropyl]pyridine-3-sulfonamide]: the 50% inhibitory concentration (IC50) was below 500 nM.
`Cc1ccc2c(C#N)c(-c3ccc(S(=O)(=O)NC(CF)CF)cn3)n(C3CCCC3)c2c1` [compound 44, 6-(3-cyano-1-cyclopentyl-6-methyl-1H-indol-2-yl)-N-(1,3-difluoropropan-2-yl)pyridine-3-sulfonamide]: the IC50 is below 500 nM.
The value for `CC(C)n1c(-c2ccc(S(=O)(=O)NC(CF)CF)cn2)c(C#N)c2ccc(OC(F)F)cc21` [compound 36, 6-[3-cyano-6-(difluoromethoxy)-1-(propan-2-yl)-1H-indol-2-yl]-N-(1,3-difluoropropan-2-yl)pyridine-3-sulfonamide] was below 500 nM; that for `Cc1ccc2c(C#N)c(-c3ncc(S(=O)(=O)NC(CF)CF)cn3)n(C3CCC3)c2c1` [compound 132, 2-(3-cyano-1-cyclobutyl-6-methyl-1H-indol-2-yl)-N-(1,3-difluoropropan-2-yl)pyrimidine-5-sulfonamide] was below 500 nM.
To `N#Cc1c(-c2ccc(S(=O)(=O)NC(CF)CF)cn2)n(C2CC2)c2cc(OC(F)F)ccc12` [compound 42, 6-[3-cyano-1-cyclopropyl-6-(difluoromethoxy)-1H-indol-2-yl]-N-(1,3-difluoropropan-2-yl)pyridine-3-sulfonamide] belongs below 500 nM; to `CC(C)n1c(-c2ccc(S(=O)(=O)NC(CF)CF)cn2)c(C#N)c2cc(Cl)ccc21` [compound 65, 6-[5-chloro-3-cyano-1-(propan-2-yl)-1H-indol-2-yl]-N-(1,3-difluoropropan-2-yl)pyridine-3-sulfonamide], below 500 nM; to `Cc1ccc2c(C#N)c(-c3ccc(S(=O)(=O)NC(CF)CF)cn3)n(C(C)C)c2c1` [compound 80, 6-[3-cyano-6-methyl-1-(propan-2-yl)-1H-indol-2-yl]-N-(1,3-difluoropropan-2-yl)pyridine-3-sulfonamide], below 500 nM.
On to `N#Cc1c(-c2ccc(S(=O)(=O)NC(CF)CF)cn2)n(C2CCC2)c2ccc(F)cc12` [compound 29, 6-(3-cyano-1-cyclobutyl-5-fluoro-1H-indol-2-yl)-N-(1,3-difluoropropan-2-yl)pyridine-3-sulfonamide], for which the IC50 was below 500 nM.
`N#Cc1c(-c2ccc(S(=O)(=O)NC(CF)CF)cn2)n(C2CCCCC2)c2cc(C3CC3)ccc12` [compound 92, 6-(3-cyano-1-cyclohexyl-6-cyclopropyl-1H-indol-2-yl)-N-(1,3-difluoropropan-2-yl)pyridine-3-sulfonamide] came in with an IC50 below 500 nM.
The molecule `N#Cc1c(-c2ncc(S(=O)(=O)NC(CF)CF)cn2)n(C2CCC2)c2cc(OC(F)F)ccc12` [compound 129, 2-[3-cyano-1-cyclobutyl-6-(difluoromethoxy)-1H-indol-2-yl]-N-(1,3-difluoropropan-2-yl)pyrimidine-5-sulfonamide] had an IC50 below 500 nM.
`CC(C)n1c(-c2ccc(S(=O)(=O)NC(CF)CF)cn2)c(C#N)c2ccc(C3CC3)cc21` [compound 83, 6-[3-cyano-6-cyclopropyl-1-(propan-2-yl)-1H-indol-2-yl]-N-(1,3-difluoropropan-2-yl)pyridine-3-sulfonamide] registered an IC50 below 500 nM.
As for `Cc1ccc2c(c1)c(C#N)c(-c1ncc(S(=O)(=O)NC(CF)CF)cn1)n2C1CCCCC1` [compound 198, 2-(3-cyano-1-cyclohexyl-5-methyl-1H-indol-2-yl)-N-(1,3-difluoropropan-2-yl)pyrimidine-5-sulfonamide], the concentration for half-maximal inhibition (IC50) is below 500 nM.
The molecule `N#Cc1c(-c2ccc(S(=O)(=O)NC(CF)CF)cn2)n(C2CCCC2)c2ccc(OC(F)(F)F)cc12` [compound 34, 6-[3-cyano-1-cyclopentyl-5-(trifluoromethoxy)-1H-indol-2-yl]-N-(1,3-difluoropropan-2-yl)pyridine-3-sulfonamide] returned an IC50 below 500 nM.
As to `Cc1ccc2c(C#N)c(-c3ccc(S(=O)(=O)NC(CF)CF)cn3)n(CC3CC3)c2c1` [compound 81, 6-[3-cyano-1-(cyclopropylmethyl)-6-methyl-1H-indol-2-yl]-N-(1,3-difluoropropan-2-yl)pyridine-3-sulfonamide], the half-inhibitory concentration (IC50) is below 500 nM.
The molecule `Cc1ccc2c(C#N)c(-c3ccc(S(=O)(=O)NC(CF)CF)cn3)n([C@@H]3CCOC3)c2c1` [compound 54, 6-{3-cyano-6-methyl-1-[(3R)-tetrahydrofuran-3-yl]-1H-indol-2-yl}-N-(1,3-difluoropropan-2-yl)pyridine-3-sulfonamide] came in with an IC50 below 500 nM.
For `CC(C)n1c(-c2ccc(S(=O)(=O)NC(CF)CF)cn2)c(C#N)c2ccc(F)cc21` [compound 61, 6-[3-cyano-6-fluoro-1-(propan-2-yl)-1H-indol-2-yl]-N-(1,3-difluoropropan-2-yl)pyridine-3-sulfonamide], the IC50 was below 500 nM.
Molecule `N#Cc1c(-c2ccc(S(=O)(=O)NC(CF)CF)cn2)n(C2CCC2)c2ccc(Cl)cc12` [compound 30, 6-(5-chloro-3-cyano-1-cyclobutyl-1H-indol-2-yl)-N-(1,3-difluoropropan-2-yl)pyridine-3-sulfonamide] came in with an IC50 below 500 nM.
The value for `N#Cc1c(-c2ccc(S(=O)(=O)NC(CF)CF)cn2)n(C2CCCC2)c2ccc(F)cc12` [compound 38, 6-(3-cyano-1-cyclopentyl-5-fluoro-1H-indol-2-yl)-N-(1,3-difluoropropan-2-yl)pyridine-3-sulfonamide] was below 500 nM.
As to `N#Cc1c(-c2ccc(S(=O)(=O)NC(CF)CF)cn2)n(C2CCCCC2)c2ccc(F)cc12` [compound 104, 6-(3-cyano-1-cyclohexyl-5-fluoro-1H-indol-2-yl)-N-(1,3-difluoropropan-2-yl)pyridine-3-sulfonamide], the half-maximal inhibitory concentration (IC50) was below 500 nM.
`CC(C)NS(=O)(=O)c1cnc(-c2c(C#N)c3ccc(C4CC4)cc3n2CC2CC2)nc1` [compound 124, 2-[3-cyano-6-cyclopropyl-1-(cyclopropylmethyl)-1H-indol-2-yl]-N-(propan-2-yl)pyrimidine-5-sulfonamide] displayed an IC50 below 500 nM.
Take `N#Cc1c(-c2ccc(S(=O)(=O)NC(CF)CF)cn2)n(C2CCCC2)c2cc(Cl)ccc12` [compound 64, 6-(6-chloro-3-cyano-1-cyclopentyl-1H-indol-2-yl)-N-(1,3-difluoropropan-2-yl)pyridine-3-sulfonamide]: the IC50 is below 500 nM.
